Experimental data published in paper PMC6049025 (The Journal of Infectious Diseases, 2018).

T1: recombinant DC-SIGN extracellular domain (human, UniProt Q9NNX6 59-404)
T1 sequence: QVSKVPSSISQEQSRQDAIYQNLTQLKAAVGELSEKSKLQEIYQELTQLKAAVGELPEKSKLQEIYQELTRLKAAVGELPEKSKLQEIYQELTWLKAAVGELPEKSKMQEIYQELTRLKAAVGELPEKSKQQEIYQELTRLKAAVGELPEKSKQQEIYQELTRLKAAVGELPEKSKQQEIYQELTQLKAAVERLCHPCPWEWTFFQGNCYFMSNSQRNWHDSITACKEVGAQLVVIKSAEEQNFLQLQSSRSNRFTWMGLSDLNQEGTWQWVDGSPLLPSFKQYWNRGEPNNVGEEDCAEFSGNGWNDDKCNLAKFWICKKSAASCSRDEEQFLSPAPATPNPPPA

B1: mannosidase-treated recombinant HCMV gB (natural protein)
chain: not shown
modifications: terminal mannose residues removed with α(1-2,3,6)-mannosidase
B2: PNGase F-treated recombinant HCMV gB (natural protein)
chain: not shown
modifications: N-glycans removed with peptide-N-glycosidase F (the paper calls the digestion incomplete in regular conditions)

Molecular target: T1, recombinant DC-SIGN extracellular domain
Test: SPR

Row | Binder | Kd [pM]
1 | B1 | 149
2 | B2 | 230
